Assay results published in the supplement of paper PMC9931576.
Human monoclonal antibodies against the spike receptor-binding domain (heavy:light variable regions). IC50 against pseudoviruses bearing the spike of naturally observed variants; lower = stronger; >10 µg/ml means not reached at the top dose. No active / inactive call. The stated detection limit is 0.0005 µg/ml; values near or below 0.001 µg/ml lie at the floor of the assay.

Legend:
Assay in all cases: pseudovirus neutralization IC50; higher = weaker neutralization
[1] = molecular target: SARS-CoV-2 Omicron BA.1 spike pseudovirus
Method: (§1)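 Single-round VSV luciferase pseudovirus mixed with antibody dilutions for 1 h and put on Huh-7 cells for about a day; IC50 from the dose curve.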

[2] = molecular target: SARS-CoV-2 Omicron BA.2 spike pseudovirus
Method: as §1

[3] = molecular target: SARS-CoV-2 Omicron BA.2.75 spike pseudovirus
Method: as §1

[4] = molecular target: SARS-CoV-2 Omicron BA.5 spike pseudovirus
Method: as §1

[5] = molecular target: SARS-CoV-2 Omicron BQ.1.1 spike pseudovirus
Method: as §1

[6] = molecular target: SARS-CoV-2 Omicron XBB spike pseudovirus
Method: as §1

[7] = molecular target: SARS-CoV-2 early D614G spike pseudovirus
Method: as §1

B1: P5A-2G9 (protein)
chain 1: QVQLVESGGGVVQPGRSLRLSCAASGFTFSSYGMHWVRQAPGKGLEWVAVIWYDGSNKYYADSVKGRFTISRDNSKNTLYLQMNSLRAEDTAVYYCARWFHTGGYFDYWGQGTLVTVSS
chain 2: QPVLTQPPSSSASPGESARLTCTLPSDINVSSYNIYWYQQKPGSPPRYLLYYYSDSDKGQGSGVPSRFSGSKDASANTGILLISGLQSEDEADYYCMIWPSNALYVFGTGTKVTVL
- pseudovirus neutralization IC50 [1]: > 10 µg/mL
- pseudovirus neutralization IC50 [2]: > 10 µg/mL
- pseudovirus neutralization IC50 [3]: > 10 µg/mL
- pseudovirus neutralization IC50 [4]: > 10 µg/mL
- pseudovirus neutralization IC50 [5]: > 10 µg/mL
- pseudovirus neutralization IC50 [6]: > 10 µg/mL
- pseudovirus neutralization IC50 [7]: 0.0259 µg/mL

B2: BD55-948 (protein)
chain 1: QVHLVQSGAEVKKPGASVKVSCKASGYTFTTYGISWVRQAPGQGLEWMGWIIPYNGATNYAQNLQGRVTMTTDTSTTTAYMELRSLRSDDTALYYCARVGAYYDRSGHFTAENENFQHWGQGTLVTVSS
chain 2: QSVLTQPPSVSGAPGQRVTISCTGSSSNIGAGYDVHWYQQLPGTAPKVLIYGNSNRPSGVPDRFSGSKSGTSASLAITGLQAEDEADYYCQSYDSSLSGHVVFGGGTKLTVL
- pseudovirus neutralization IC50 [1]: 1.08 µg/mL
- pseudovirus neutralization IC50 [2]: > 10 µg/mL
- pseudovirus neutralization IC50 [3]: > 10 µg/mL
- pseudovirus neutralization IC50 [4]: > 10 µg/mL
- pseudovirus neutralization IC50 [5]: > 10 µg/mL
- pseudovirus neutralization IC50 [6]: > 10 µg/mL
- pseudovirus neutralization IC50 [7]: 0.162 µg/mL

B3: BD55-942 (protein)
chain 1: EVQLVQSGAEVKKPGESLKISCKGSGYSFTTYWIAWVRQMPGKGLEWMGIIYPYDSDTRYSPSSHGQVTISADKSITTAYLQWSSLKASDTAIYYCVRQTTLNTHLDYWGQGTLVTVSS
chain 2: QSVLTQPPSASGTPGQRVTISCSGSSSNIGSNTVNWYQQLPGTAPKLLIYSNKERPSGVPDRFSGSKSGTSASLAISGLQSEDEADYYCGAWDDSLNGVVFGGGTKLTVL
- pseudovirus neutralization IC50 [1]: > 10 µg/mL
- pseudovirus neutralization IC50 [2]: > 10 µg/mL
- pseudovirus neutralization IC50 [3]: > 10 µg/mL
- pseudovirus neutralization IC50 [4]: > 10 µg/mL
- pseudovirus neutralization IC50 [5]: > 10 µg/mL
- pseudovirus neutralization IC50 [6]: > 10 µg/mL
- pseudovirus neutralization IC50 [7]: > 10 µg/mL

B4: XG2v-033 (protein)
chain 1: EVQLVESGGGVVRPGGSLRLSCAASGFTFDDYGMNWVRQAPGKGLEWVSGINWNGGRTGYADSVKGRFTISRDNAKNSLYLQMNSLRAEDTALYHCARVYCGNDCYSLVLAPNDAFDIWGQGTMVTVSS
chain 2: QSVLTQPPSASGTPGQRVTISCSGSSSNIGSNTVNWYQQLPGTAPKLLIYNNNQRPSGVPDRFSASKSGTSASLAISGLQSEDEADYYCAAWDDSLNGPVFGGGTK
- pseudovirus neutralization IC50 [1]: 3.4 µg/mL
- pseudovirus neutralization IC50 [2]: 3 µg/mL
- pseudovirus neutralization IC50 [3]: 1.82 µg/mL
- pseudovirus neutralization IC50 [4]: 4.87 µg/mL
- pseudovirus neutralization IC50 [5]: 4.96 µg/mL
- pseudovirus neutralization IC50 [6]: 5 µg/mL
- pseudovirus neutralization IC50 [7]: 0.148 µg/mL

B5: XG2v-070 (protein)
chain 1: QVQLVESGGGVVQPGRSLRLSCAASGFTFSSYGMHWVRQAPGKGLEWVAVIWYDGSNKYYADSVKGRFTISRDNSKNTLYLHMNSLRAEDTAVYYCAREYFYDSSDFYYEYYFDYWGQGTLVTVSS
chain 2: QSALTQPRSVSGSPGQSVTISCTGTSSDVGGYNYVSWYQQHPGKAPKLMIYDVSKRPSGVPDRFSGSKSGNTASLTISGLQAEDEADYYCCSYAGSYTYVFGTGTKVTV
- pseudovirus neutralization IC50 [1]: > 10 µg/mL
- pseudovirus neutralization IC50 [2]: > 10 µg/mL
- pseudovirus neutralization IC50 [3]: > 10 µg/mL
- pseudovirus neutralization IC50 [4]: > 10 µg/mL
- pseudovirus neutralization IC50 [5]: > 10 µg/mL
- pseudovirus neutralization IC50 [6]: > 10 µg/mL
- pseudovirus neutralization IC50 [7]: 7.1 µg/mL

B6: BD55-944 (protein)
chain 1: EVQLVESGGGLLQPGGSLSLSCAASGIIVSRNYMSWVRQAPGKGLEWVSIIYSGGTTYYANFAKGRFTISRDNSKNTLYLQMNSLRAEDTAVYYCARDVHGSGRLDYWGQGTLVTVSS
chain 2: QSALTQPASVSGSPGQSITISCTGTSSDVGGYNFVSWYQQHPGKAPKLMIYDVNNRPSGVSDRFSGSKSGNTASLTISGLQAEDEADYYCNSYTTIDTVEFGGGTKLTVL
- pseudovirus neutralization IC50 [1]: > 10 µg/mL
- pseudovirus neutralization IC50 [2]: > 10 µg/mL
- pseudovirus neutralization IC50 [3]: > 10 µg/mL
- pseudovirus neutralization IC50 [4]: > 10 µg/mL
- pseudovirus neutralization IC50 [5]: > 10 µg/mL
- pseudovirus neutralization IC50 [6]: > 10 µg/mL
- pseudovirus neutralization IC50 [7]: > 10 µg/mL

B7: BD55-930 (protein)
chain 1: QLQLQESGPGLVKPSETLSLTCTVSGGSISSSTYYWGWIRQPPGKGLEWIGNIYYSGSTYYNPSLKSRVTISVDTSKNQFSLKLRSVTAADTAVYYCARHPAVAGREYFQHWGQGTLVTVSS
chain 2: SYVLTQPPSVSVAPGKTARITCGGNNIGSKSVHWYQQKPGQAPVLVIYYDSDRPSGIPERFSGSNSGNTATLTISRVEAGDEADYFCQVWDGSSDHLYVFGTGTKVTVL
- pseudovirus neutralization IC50 [1]: > 10 µg/mL
- pseudovirus neutralization IC50 [2]: > 10 µg/mL
- pseudovirus neutralization IC50 [3]: > 10 µg/mL
- pseudovirus neutralization IC50 [4]: > 10 µg/mL
- pseudovirus neutralization IC50 [5]: > 10 µg/mL
- pseudovirus neutralization IC50 [6]: > 10 µg/mL
- pseudovirus neutralization IC50 [7]: > 10 µg/mL

B8: XG2v-004 (protein)
chain 1: EVQLVQSGAEVKKPGESLKISCKGSGYSFTSYWIGWVRQMPGKGLEWMGIIYPGDSDTRYSPSFQGQVTISADKSISTAYLQWSSLKASDTAMYYCATGYYGSGSYSAFDIWGQGTMVTVSS
chain 2: QSVLTQPPSASGTPGQRVTISCSGSSSNIGSNTVNWYQQLPGTAPKLLIYNNNQRPSGVPDRFSGSKSGTSASLAISGLQSEDEADYYCAAWDDSLNGRWVFGGGTK
- pseudovirus neutralization IC50 [1]: > 10 µg/mL
- pseudovirus neutralization IC50 [2]: > 10 µg/mL
- pseudovirus neutralization IC50 [3]: > 10 µg/mL
- pseudovirus neutralization IC50 [4]: > 10 µg/mL
- pseudovirus neutralization IC50 [5]: > 10 µg/mL
- pseudovirus neutralization IC50 [6]: > 10 µg/mL
- pseudovirus neutralization IC50 [7]: > 10 µg/mL

B9: BD55-93 (protein)
chain 1: EVQLVESGGGLVKPGGSLRLSCVASEFIFSTYSFNWVRQAPGKGLEWVSCISSSSNHIYYADSVKGRFTISRDNAKNSLYLQMNSLRAEDTAVYYCARDFKRRWELFHDYYGMDVWGQGTTVTVSS
chain 2: QSALTQPASVSGSPGQSITISCTGTSSAVDGYNYVSWYQQHPGKAPKLMIYDVSERPSGVSNRFSGSKSGNTASLTISGLQAEDEADYYCSSYTSSNTFVFGGGTKLTVL
- pseudovirus neutralization IC50 [1]: > 10 µg/mL
- pseudovirus neutralization IC50 [2]: > 10 µg/mL
- pseudovirus neutralization IC50 [3]: > 10 µg/mL
- pseudovirus neutralization IC50 [4]: > 10 µg/mL
- pseudovirus neutralization IC50 [5]: > 10 µg/mL
- pseudovirus neutralization IC50 [6]: > 10 µg/mL
- pseudovirus neutralization IC50 [7]: > 10 µg/mL

B10: XG2v-006 (protein)
chain 1: EVQLVESGGGLIQPGRSLRLSCAASGFTVSSEYMSWVRQAPGKGLECVSVIYSGGSTYYADSVRGRFTISRDNSKNTLYLQMNSLRAEDTAVYFCARDGGPLWFGELGGMDAWGQGTTVTVSS
chain 2: DIQMTQSPSSLSASVGDRVTITCRASQSISSYLNWYQQKPGKAPKLLIYAASNFQSGVPSRFSGSGSGTDFTLTINSLQPEDFATYYCQQSYSPLRTFGQGTKVEIK
- pseudovirus neutralization IC50 [1]: 0.657 µg/mL
- pseudovirus neutralization IC50 [2]: 0.777 µg/mL
- pseudovirus neutralization IC50 [3]: 0.818 µg/mL
- pseudovirus neutralization IC50 [4]: > 10 µg/mL
- pseudovirus neutralization IC50 [5]: > 10 µg/mL
- pseudovirus neutralization IC50 [6]: > 10 µg/mL
- pseudovirus neutralization IC50 [7]: 0.843 µg/mL

B11: BD55-925 (protein)
chain 1: EVQLVESGGGLVQPGGSLRLSCAASGFTFHNYWMTWVRQAPGKGLEWVAKIKQDGGETHYVDSVRGRFTISTDNGKNSQYLQMDSLRAEDTAVYYCARGRYDFRSAYHDEVYFDYWGQGTLVTVSS
chain 2: SYELTQPPSVSVSPGQTARITCSADALRNQYTYWYQQRPGQAPVLVMYKDTERPSGIPERFSGSSSGTTVTLTISGVQAEDEADYYCQSADSRGPVFGGGTRLTVL
- pseudovirus neutralization IC50 [1]: > 10 µg/mL
- pseudovirus neutralization IC50 [2]: > 10 µg/mL
- pseudovirus neutralization IC50 [3]: > 10 µg/mL
- pseudovirus neutralization IC50 [4]: > 10 µg/mL
- pseudovirus neutralization IC50 [5]: > 10 µg/mL
- pseudovirus neutralization IC50 [6]: > 10 µg/mL
- pseudovirus neutralization IC50 [7]: > 10 µg/mL

B12: BD55-934 (protein)
chain 1: QVQLVESGGGVVQPGRSLRLSCAASGFTFGRYAFHWVRQGPGKGLEWVAVISYDGVHTYSSDSLKGRVTISRDNSRSTLFLQINSLETEDSALYFCARGPNGDFSHYLWSYGMDVWGQGTTVTVSS
chain 2: SYVLTQPPSVSAAPGQTARITCGGDNIGRKSVHWYQHKPGQAPVLVVYDDGARPSGIPERFSGSNSGNTATLTISGLEAGDEADYYCQVCDTSSDHWIFGGGTKVTVL
- pseudovirus neutralization IC50 [1]: > 10 µg/mL
- pseudovirus neutralization IC50 [2]: > 10 µg/mL
- pseudovirus neutralization IC50 [3]: > 10 µg/mL
- pseudovirus neutralization IC50 [4]: > 10 µg/mL
- pseudovirus neutralization IC50 [5]: > 10 µg/mL
- pseudovirus neutralization IC50 [6]: > 10 µg/mL
- pseudovirus neutralization IC50 [7]: > 10 µg/mL
